Anti-infective test results gathered from many reports (values: NIAID ChemDB through PubChem).

Common to all: whole-cell or culture tests; organism: Hepatitis B virus; read-out: EC50

Blank or dashed fields: not listed here. ECn: concentration that inhibits the pathogen or its effect by n%. Lines come from different laboratories, so protocols vary.

SMILES,read by,cells,setting,strain or isolate,result
O=c1[nH]cnc2c1ncn2CCOCCP(=O)(O)O,-,HB611,-,-,>400 µM
Nc1nc(N)c(Br)c(OCCOCP(=O)(O)O)n1,PCR,HepAD38,-,-,8.7 µM
Nc1nccc2c1ncn2CCOCCP(=O)(O)O,-,HB611,-,-,200 µM
Nc1cc(SCCOCP(=O)(O)O)nc(N)n1,PCR,HEPAD79,-,-,1 µM
C=C(CCC=C(C)C)[C@H]1CC[C@]2(C)[C@@H]1[C@H](O)C[C@@H]1[C@@]3(C)CC[C@H](O)C(C)(C)[C@@H]3[C@@H](OC3OC(CO)C(O)C(O)C3OC3OC(C)C(O)C(O)C3O)C[C@]12C,PCR,HepG2.2.15,4 d,-,3.206 µM
Nc1nc2c(ncn2CCOCP(=O)(O)O)c(=O)[nH]1,-,HB611,-,-,0.25 µM
COc1ccc([C@H]2OC[C@H]3[C@@H]2CO[C@@H]3c2cc(OC)c(O)c(OC)c2)cc1O,ELISA / antigen,HepG2.2.15,-,-,50.98 µM
Nc1nc(N)c2ncn(CCOCP(=O)(O)O)c2n1,-,HB611,-,-,0.07 µM
Nc1ncnc2c1ncn2CCOCP(=O)(O)O,hybridisation,HepG2 2.2.15,-,-,1.2 µM
CC1=C(O)C(=O)C=C2C1=CC=C1[C@@]2(C)CC[C@@]2(C)[C@@H]3C[C@](C)(C(=O)N4CCCC4)CC[C@]3(C)CC[C@]12C,ELISA / antigen,HepG2 2.2.15,-,-,21.7 µM
CC[C@H]1OC(O[C@@H]2[C@@H]3[C@](C)(CC[C@H]2C(C)C)[C@H](O)CC[C@]3(C)O)[C@H](O)[C@@H](O)[C@@H]1O,ELISA / antigen,HepG2.2.15,-,-,15.02 µM
Nc1ncnc2c1ncn2CCOCP(=O)(O)O,PCR,HEPAD79,-,-,0.1 µM
Nc1ncnc2c1cnn2CCOCP(=O)(O)O,-,HB611,-,-,17 µM
CC1=C(O)C(=O)C=C2C1=CC=C1[C@@]2(C)CC[C@@]2(C)[C@@H]3C[C@](C)(C(=O)N4CCCCC4)CC[C@]3(C)CC[C@]12C,ELISA / antigen,HepG2 2.2.15,-,-,25.2 µM
COC(C)c1ccc(O)c(O)c1,ELISA / antigen,HepG2.2.15,-,-,446 µM
COC(=O)[C@]1(C)CC[C@]2(C)CC[C@]3(C)C4=CC=C5C(=CC(=O)C(OC)=C5C)[C@]4(C)CC[C@@]3(C)[C@@H]2C1,ELISA / antigen,HepG2 2.2.15,-,-,19.9 µM
Nc1ncnc2c1ncn2CCOCCP(=O)(O)O,-,HB611,-,-,>400 µM
C[C@H](COc1cc(N)nc(N)n1)OCP(=O)(O)O,PCR,HEPAD79,-,-,1.1 µM
CCCCCCCCCCCCCC(=O)O[C@@H]1[C@@H](C)[C@@]2(O)[C@@H](C=C(CO)C[C@]3(O)C(=O)C(C)=C[C@@H]23)[C@@H]2C(C)(C)[C@]12OC(C)=O,-,HB611,-,-,100 µM
CC(=O)[C@]1(O)CC[C@@]2(O)[C@]1(C)[C@H](OC(=O)/C=C(\C)C(C)C)CC1[C@@]3(C)CC[C@H](OC(=O)/C=C/c4ccccc4)CC3=CC[C@]12O,ELISA,2.2.15,-,G,48.33 µM
N#CCc1c(N)nc(N)nc1OCCOCP(=O)(O)O,PCR,HepAD38,-,-,>300 µM
CC1=C(O)C(=O)C=C2C1=CC=C1[C@@]2(C)CC[C@@]2(C)[C@@H]3C[C@](C)(C(=O)OCc4ccccc4)CC[C@]3(C)CC[C@]12C,ELISA / antigen,HepG2 2.2.15,-,-,17.3 µM
Nc1ccn([C@@H]2CS[C@H](CO)O2)c(=O)n1,PCR,HEPAD79,-,-,0.65 µM
Cc1cn(C2C=CC(C(=O)O)O2)c(=O)[nH]c1=O,replicon,HepG2,-,-,10 µg/mL
Nc1ncnc2c1ncn2CCOCP(=O)(O)O,-,Huh7,-,Mutation M552I,4.5 µM
Nc1cc(OCCOCP(=O)(O)O)nc(=O)[nH]1,PCR,HepAD38,-,-,>300 µM
CCOc1cccc(/C=C/C(=O)O[C@H]2CC[C@@]3(C)C(=CC[C@]4(O)C3C[C@@H](OC(=O)/C=C(\C)C(C)C)[C@@]3(C)[C@]4(O)CC[C@@]3(O)C(C)=O)C2)c1,ELISA,HepG2.2.15,-,-,21.92 µM
CNC(=O)[C@]1(C)CC[C@]2(C)CC[C@]3(C)C4=CC=C5C(=CC(=O)C(O)=C5C)[C@]4(C)CC[C@@]3(C)[C@@H]2C1,ELISA / antigen,HepG2 2.2.15,-,-,20.3 µM
C[C@H](Cn1cnc2c(N)ncnc21)OCP(=O)(O)O,PCR,HEPAD79,-,-,0.3 µM
CCCOC(=O)[C@]1(C)CC[C@]2(C)CC[C@]3(C)C4=CC=C5C(=CC(=O)C(O)=C5C)[C@]4(C)CC[C@@]3(C)[C@@H]2C1,ELISA / antigen,HepG2 2.2.15,-,-,23.1 µM
Nc1ccn([C@@H]2CS[C@H](CO)O2)c(=O)n1,-,-,-,WILD TYPE,0.47 µM
CC1=C(O)C(=O)C=C2C1=CC=C1[C@@]2(C)CC[C@@]2(C)[C@@H]3C[C@](C)(C(=O)N(C)C)CC[C@]3(C)CC[C@]12C,ELISA / antigen,HepG2 2.2.15,-,-,13.1 µM
Nc1ncnc2c1ncn2C[C@@H](CO)OCP(=O)(O)O,hybridisation,HepG2 2.2.15,-,-,1.5 µM
Nc1nc2c(ncn2CCC(CO)CO)c(=O)[nH]1,-,HepG2,-,Mutation L526M,103 µM
Nc1ncnc2c1ncn2CCOCP(=O)(O)O,-,-,-,M550V,2.8 µM
CC(=O)[C@]1(O)CC[C@@]2(O)[C@]1(C)[C@H](OC(=O)/C=C(\C)C(C)C)CC1[C@@]3(C)CC[C@H](OC(=O)/C=C/c4ccc(Cl)c([N+](=O)[O-])c4)CC3=CC[C@]12O,ELISA,HepG2.2.15,-,-,>79.52 µM